Results published in publication PMC8967715, “ACE2 binding is an ancestral and evolvable trait of sarbecoviruses” (2022).

Molecular target: Mouse (Mus musculus) ACE2 (residues 18–740) with His tag and human IgG1 Fc, mouse (Mus musculus), Q8R0I0-1 18-740
Assay: FACS; apparent KD, printed as -log10(KD,app) = […]

## SARS-CoV-1 Urbani RBD, yeast-displayed
  pKd: 6.80

pKd: −log10 of the molar value.
